Drawing on PubChem BioAssay AID449728 (The Scripps Research Institute Molecular Screening Center, 2010), this text covers inhibition for 45 compounds.

The list shows a part of the results, in another mix than the full data. Calls of active or inactive are those of the source.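 Rule for the calls: active = inhibition above the campaign's mean inhibition across all tested compounds plus 3 SD (cut at about 9.9% in these data); inactive = the rest.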

The nature of this test: bacterial viability reduction in E. coli – absorbance, OD600, counter-screen for AddAB inhibitor project, primary screen (AID 449728).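 Note: uninfected addAB+ strain grown without phage in ampicillin broth; 0% = DMSO wells and 100% = ciprofloxacin 0.95 µg/ml wells.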 The following applies: E. coli V3065 growth, 18 h, at 11.9 µM, active compounds read high. On the technique in general: Counterscreens check selectivity or assay interference.
For the compound `O=[N+]([O-])c1ccc(O)c(/C=N/Nc2ccc([N+](=O)[O-])cc2[N+](=O)[O-])c1`, the inhibition (as a rule, the relative decrease from the control value, in per cent) was inactive: -1.38%.

For `C[C@H]1OP(=O)(Oc2ccccc2)[C@H](O)[C@H](O)[C@H]1N=[N+]=[N-]` (stereo not given in full), the inhibition is inactive: 0.85%.

On to `O=P(Nc1nc2ccccc2s1)(c1ccccc1)c1ccccc1`, for which the inhibition was inactive: -1.7%.

With `CN(C)C1(CNC(=O)c2ccc(Cl)c(S(N)(=O)=O)c2)CCCCC1`, the inhibition is inactive: -0.18%.

Regarding `O=P(Nc1ccccn1)(c1ccc(Br)cc1)c1ccc(Br)cc1`, the inhibition is inactive: 1.19%.

`c1nnnn1CCn1cnnn1`: the inhibition is inactive: 2.53%.

On to `O=P(Nc1nccs1)(c1ccccc1)c1ccccc1`, for which the inhibition was inactive: 0.17%.

Turning to `CC(C)C(=O)NC(Sc1ccccc1)C(Cl)(Cl)Cl` (stereo not given), the inhibition is inactive: -1.3%.

Take `CC1CCN(C(=O)Oc2c(Cl)cc(Cl)c3cccnc23)CC1`: the inhibition is inactive: -0.08%.

Regarding `CN(C)C(=O)OCCc1n(C)cc[n+]1C`, the inhibition was inactive: 0.7%.

Take `CC(C)=N/N=C(\N)N[N+](=O)[O-]`: the inhibition is inactive: 0.55%.

For the compound `CCN(/C(=N/P(=O)(N1CCOCC1)N1CCOCC1)N1CCOCC1)c1ccc(OC)cc1`, the inhibition is inactive: 1.81%.

`C[N+]1=C2C=CC=CC=C2SC12C([N+](=O)[O-])=CC([N+](=O)[O-])=C[C-]2[N+](=O)[O-]` (stereo not given): the inhibition is inactive: -2.49%.

For `Nc1ccc([As](=O)(O)c2ccc(N)cc2)cc1`, the inhibition is inactive: 0.59%.

As to `O=[N+]([O-])c1cc([N+](=O)[O-])c(CCNc2ccccc2)c([N+](=O)[O-])c1`, the inhibition was inactive: 0.42%.

For `CCc1nc2c(n1)c1c(non1O)c1c2no[n+]1[O-]`, the inhibition is inactive: 2.41%.

On to `Cc1ccc(NP(=O)(Oc2ccccc2)Oc2ccccc2)nc1`, for which the inhibition was inactive: 2.03%.

On to `CC(=O)N1C2C3N(C(C)=O)C1C1N(C(C)=O)C(C(N1C(C)=O)N3C(C)=O)N2C(C)=O`, for which the inhibition was inactive: -1.52%.

For the compound `O=[N+]([O-])c1cccc2n[nH]nc12`, the inhibition was active: 56.5%.

On to `COc1ccc(C2=NCC(CBr)S2)cc1` (stereo not given), for which the inhibition is inactive: 2.12%.

In the case of `O=[N+]([O-])c1cccc(NC2=NCC(CBr)S2)c1` (stereo not given), the inhibition is inactive: -0.49%.

For `O=[N+]([O-])c1ncn(CCn2ncnc2[N+](=O)[O-])n1`, the inhibition was inactive: 0.17%.

`CC(C)(C)C(=O)NC(Sc1ccncn1)C(Cl)(Cl)Cl` (stereo not given): the inhibition is inactive: 3.78%.

As for `O=C(Nc1cc([As](=O)(O)O)ccc1O)c1ccccc1`, the inhibition is inactive: 0.36%.

`CCN(N=Nc1nonc1N)c1nonc1N`: the inhibition is inactive: 2.6%.

In the case of `O=[N+]([O-])c1cc([N+](=O)[O-])c(CCN2CCOCC2)c([N+](=O)[O-])c1`, the inhibition is inactive: -2.53%.

For `CN(C(=O)Cc1ccc(Cl)c(Cl)c1)[C@H]1CCCC[C@@H]1N1CCCC1`, the inhibition is inactive: -0.52%.

Take `Cc1ccc(NP(=O)(Oc2ccccc2F)Oc2ccccc2F)nc1`: the inhibition was inactive: -1%.

With `Cc1cc(SC(NC(=O)c2ccc(F)cc2)C(Cl)(Cl)Cl)ncn1` (stereo not given), the inhibition was inactive: 0.85%.

In the case of `CCOP(=O)(Nc1ccccc1)OCC`, the inhibition is inactive: 0.33%.

`O=P(Nc1nc2ccc(Cl)cc2s1)(c1ccccc1)c1ccccc1`: the inhibition was inactive: -3.13%.

Turning to `CC(=O)Nc1ccc([As](=O)(O)O)cc1`, the inhibition is inactive: 0.36%.

For the compound `O=C(O)c1ccccc1[As](=O)(O)O`, the inhibition was inactive: 0%.

Turning to `O=C(NC(Sc1ccncn1)C(Cl)(Cl)Cl)c1ccccc1` (stereo not given), the inhibition is inactive: 0.95%.

Turning to `Cc1c2non([O-])c-2c(C)[n+](=O)[n+]1[O-]`, the inhibition is active: 9.88%.

As for `Oc1ccccc1CNc1ccccn1`, the inhibition is inactive: -0.26%.

Consider `Nc1cc(N)c2nonc2c1[N+](=O)[O-]`, for which the inhibition is inactive: 0.32%.

`CC(C)CC(=O)NC(Sc1ccc(Cl)cc1)C(Cl)(Cl)Cl` (stereo not given): the inhibition was inactive: 3.21%.

For `CN1CCCC(OC(=O)C(c2ccccc2)c2ccccc2)C1` (stereo not given), the inhibition was inactive: -2.78%.

Consider `Clc1ccc(Cl)c(NC2=NCC(CBr)S2)c1` (stereo not given), for which the inhibition was inactive: -1.1%.

In the case of `Cc1ccc(OP(=O)(Nc2nccs2)Oc2ccc(C)cc2)cc1`, the inhibition is inactive: -4.23%.

For `COc1ccccc1OP(=O)(Nc1ccc(C)cn1)Oc1ccccc1OC`, the inhibition is inactive: 1.85%.

As for `Cc1ccc(N/C(=N/P(=O)(N2CCOCC2)N2CCOCC2)N2CCOCC2)cc1`, the inhibition is inactive: -0.08%.

Take `CN(C(=O)Cc1ccc(Cl)c(Cl)c1)[C@H]1CCCC[C@H]1N1CCCC1`: the inhibition was inactive: -1.72%.

Take `NC(=O)c1cc([N+](=O)[O-])cc([N+](=O)[O-])c1N`: the inhibition was inactive: 1.69%.
